Results as given in US8546386B2, “Corrosion and microbial control in hydrocarbonaceous compositions” (Dow Global Technologies LLC, priority 2008, dated 2013).

System: Pseudomonas aeruginosa ATCC#33988
Assay: Microbial testing in biodiesel fuel, plate count
Type: cell-based
Settings: no biocide

SMILES: OCCN(CCO)CCO
- Bacteria (Ps. aeruginosa) count (additive 500 ppm, Week 1): 1.80E+06 Bact/ml
- Bacteria (Ps. aeruginosa) count (additive 500 ppm, Week 2): 3.00E+06 Bact/ml
- Bacteria (Ps. aeruginosa) count (additive 500 ppm, Week 4): 9.00E+05 Bact/ml
- Bacteria (Ps. aeruginosa) count (additive 1500 ppm, Week 1): 4.00E+05 Bact/ml
- Bacteria (Ps. aeruginosa) count (additive 1500 ppm, Week 2): 7.60E+05 Bact/ml
- Bacteria (Ps. aeruginosa) count (additive 1500 ppm, Week 3): 8.20E+05 Bact/ml
- Bacteria (Ps. aeruginosa) count (additive 1500 ppm, Week 4): 5.70E+05 Bact/ml
